Consider four compounds from article PMC9065038 (Scientific Reports, 2022).

The chains behind the UniProt entries cited, without tags or fusion partners. Where a name states a change or a piece, a line headed by the entry shows the natural chain unless it says otherwise.
UniProt P41146: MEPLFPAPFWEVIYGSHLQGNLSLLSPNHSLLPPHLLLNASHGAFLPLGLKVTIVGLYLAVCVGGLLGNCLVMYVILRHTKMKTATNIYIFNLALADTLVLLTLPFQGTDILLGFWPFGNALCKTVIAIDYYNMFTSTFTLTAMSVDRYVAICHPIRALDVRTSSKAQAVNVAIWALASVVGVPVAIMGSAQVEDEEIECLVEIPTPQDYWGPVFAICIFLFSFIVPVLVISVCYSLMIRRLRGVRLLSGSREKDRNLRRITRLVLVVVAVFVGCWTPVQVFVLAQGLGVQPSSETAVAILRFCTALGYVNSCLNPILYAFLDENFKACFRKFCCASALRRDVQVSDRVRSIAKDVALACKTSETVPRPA
UniProt P35372, whole entry, looked up: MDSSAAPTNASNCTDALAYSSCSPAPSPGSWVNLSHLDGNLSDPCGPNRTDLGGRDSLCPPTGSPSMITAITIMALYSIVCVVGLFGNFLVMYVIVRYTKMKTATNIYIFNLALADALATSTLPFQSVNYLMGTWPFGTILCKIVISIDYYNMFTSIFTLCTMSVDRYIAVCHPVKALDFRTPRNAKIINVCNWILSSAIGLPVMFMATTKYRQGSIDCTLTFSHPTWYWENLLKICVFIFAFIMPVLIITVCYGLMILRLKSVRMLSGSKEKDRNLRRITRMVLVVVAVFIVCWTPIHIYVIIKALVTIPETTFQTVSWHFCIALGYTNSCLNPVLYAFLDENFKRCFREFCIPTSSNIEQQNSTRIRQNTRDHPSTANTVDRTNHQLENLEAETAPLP
UniProt P41145: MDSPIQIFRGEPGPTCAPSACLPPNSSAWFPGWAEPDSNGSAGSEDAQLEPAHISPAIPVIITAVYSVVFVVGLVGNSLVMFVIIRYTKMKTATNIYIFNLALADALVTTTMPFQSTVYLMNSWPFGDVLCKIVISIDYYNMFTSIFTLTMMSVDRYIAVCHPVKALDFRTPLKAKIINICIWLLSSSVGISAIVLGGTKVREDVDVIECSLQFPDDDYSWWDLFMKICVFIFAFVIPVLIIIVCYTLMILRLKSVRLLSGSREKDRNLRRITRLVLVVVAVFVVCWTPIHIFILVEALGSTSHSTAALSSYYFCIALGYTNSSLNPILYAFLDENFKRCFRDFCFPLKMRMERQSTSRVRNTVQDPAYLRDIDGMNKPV

Data set [1] has as its target T1, human NOP (Homo sapiens, UniProt P41146). Briefly: [35S]GTPγS binding assay, CHO cell membranes. Conditions: for [35S]GTPγS NOP % Stim: % stimulation normalized to N/OFQ set at 100%; for agonist efficacy at NOP in [35S]GTPγS binding (in words): relative to N/OFQ; for EC50: read-out: [35S]GTPγS NOP EC50, stably transfected CHO cells. In general terms: GTPγS is a poorly hydrolysed GTP analogue; its binding reports G protein activation.

In data set [2] the target is T2, human MOP (Homo sapiens, UniProt P35372). Briefly: [35S]GTPγS binding assay, CHO cell membranes. Conditions: for [35S]GTPγS MOP % Stim: % stimulation normalized to DAMGO set at 100%; for agonist efficacy at MOP in [35S]GTPγS binding (in words): relative to DAMGO; for EC50: read-out: [35S]GTPγS MOP EC50, stably transfected CHO cells.
Data set [3] concerns the target T1, human NOP. As to the kind of experiment: Radioligand displacement competition binding, [3H]N/OFQ, CHO cell membranes. Conditions: for affinity at NOP (in words): radioligand displacement; for Ki: read-out: Radioligand Displacement Ki, NOP, CHO cells stably expressing NOP, [3H]N/OFQ.
Data set [4] addresses T1, human NOP. As to the kind of experiment: GIRK channel-based fluorescent membrane potential assay in AtT-20 cells. The conditions noted are these: for agonist efficacy at NOP in GIRK assay (in words): compared to N/OFQ; for GIRK NOP Emax: normalized to 1 µM N/OFQ set at 100%; for EC50: read-out: GIRK NOP EC50, stably transfected AtT-20 cells.
Data set [5] deals with T2, human MOP. The data set is described as above. The conditions noted are these: for agonist efficacy at MOP in GIRK assay (in words): compared to DAMGO; for GIRK MOP Emax: normalized to 1 µM DAMGO set at 100%; for EC50: read-out: GIRK MOP EC50, stably transfected AtT-20 cells.
Data set [6] concerns the target MOP receptor (T370, S375, T376, T379) (Homo sapiens, UniProt P35372). As to the kind of experiment: Agonist-induced receptor phosphorylation, Western blot with phosphosite-specific antibodies, HEK293 cells. The conditions noted are these: 10^-5 to 10^-9 M, sites T370, S375, T376, T379, listed as cebranopadol.
In data set [7] the target is NOP receptor (S346, S351, T362/S363) (Homo sapiens, UniProt P41146). Described as above. Conditions: 10^-5 to 10^-9 M.
For a further data set, the target named is KOP (Homo sapiens, UniProt P41145). As to the kind of experiment: Radioligand displacement binding in CHO cells stably expressing KOP. Conditions: read-out: Radioligand Displacement Ki, KOP. A general note: In a radioligand displacement assay an active substance lowers the binding of a labelled ligand.
For data set [8] the following is noted: supra-analgesic doses, nonhuman primates; cited from earlier work.
Data set [9] deals with T2, human MOP. As to the kind of experiment: Radioligand displacement competition binding, [3H]DAMGO, CHO cell membranes. Conditions: read-out: Radioligand Displacement Ki, MOP, CHO cells stably expressing MOP.

Molecules are shown by their SMILES.

As a reminder, the EC50 is the concentration giving half of the maximal effect. As to `CN(C)[C@]1(c2ccccc2)CC[C@]2(CC1)OCCc1c3cc(F)ccc3[nH]c12`, on human NOP [1], the “[35S]GTPγS NOP % Stim” value was found to be 86.40 ± 5.34% and the “agonist efficacy at NOP in [35S]GTPγS binding (in words)” value is listed as “high intrinsic activity”. Besides, on human MOP [2], the “[35S]GTPγS MOP % Stim” value amounted to 100.40 ± 0.58% and the “agonist efficacy at MOP in [35S]GTPγS binding (in words)” value is “full intrinsic activity”. Further, the “affinity at NOP (in words)” value on human NOP [3] was “high affinity”. At human NOP [4], the “agonist efficacy at NOP in GIRK assay (in words)” value was “partial agonist efficacy”, the “GIRK NOP Emax” value was determined as 50% and the EC50 was 71.9 nM. In addition, at human MOP [5], the “agonist efficacy at MOP in GIRK assay (in words)” value is reported as “superagonist activity”, the “GIRK MOP Emax” value is listed as 127% and the EC50 was 58.9 nM. The “agonist-induced MOP phosphorylation (in words)” value in [6] is “robust phosphorylation at T370, S375, T376 and moderate phosphorylation at T379”. In addition, the “agonist-induced NOP phosphorylation (in words)” value in data set [7] (sites S346, S351, T362/S363) is given as “weak NOP phosphorylation at S346”. Besides, the “agonist-induced NOP phosphorylation (in words)” value in data set [7] (sites S346, S351, T362/S363, listed as cebranopadol) was “failed to elicit phosphorylation at NOP, except for very weak phosphorylation at the primary site S346”.
As a reminder, the Ki is the equilibrium dissociation constant of an inhibitor or competing ligand from its target. For the compound `CC(C)[C@H]1CC[C@@H](N2CCC3(CC2)C(=O)N(CCNS(N)(=O)=O)Cc2ccccc23)CC1` [AT-121], at human NOP [1], the “[35S]GTPγS NOP % Stim” value is listed as 41.1 ± 0.3%, the half-maximal effective concentration (EC50) is 34.7 nM and the “agonist efficacy at NOP in [35S]GTPγS binding (in words)” value is on record as “partial agonist efficacy”. For the same compound, on human MOP [2], the “[35S]GTPγS MOP % Stim” value is on record as 14.2 ± 0.4% and the EC50 amounted to 19.6 nM. Moreover, on human NOP [3], the “affinity at NOP (in words)” value is “high affinity” and the inhibition constant (Ki) was found to be 3.67 nM. For the same compound, at human NOP [4], the “agonist efficacy at NOP in GIRK assay (in words)” value was “partial agonist efficacy”, the “GIRK NOP Emax” value came to 69.7% and the EC50 was 6.1 nM. On human MOP [5], the “agonist efficacy at MOP in GIRK assay (in words)” value is listed as “lowest Emax”, the “GIRK MOP Emax” value stood at 66.7% and the EC50 is 27.8 nM. Moreover, the Ki at KOP is 40.8 nM. Also, the “respiratory or cardiovascular functions” value in data set [8] is on record as “did not compromise respiratory or cardiovascular functions”. In addition, the Ki at human MOP [9] came to 14.2 nM.
For the compound `CCC1C(=O)N(C2CCN(CCC(c3ccccc3)c3ccccc3)CC2)c2ccccc21` (centres unmarked) [AT-034], on human NOP [1], the EC50 turned out to be 124 nM and the “agonist efficacy at NOP in [35S]GTPγS binding (in words)” value is reported as “high intrinsic activity”. On human MOP [2], the EC50 was 39.5 nM and the “agonist efficacy at MOP in [35S]GTPγS binding (in words)” value is recorded as “full intrinsic activity”. Also, at human NOP [3], the “affinity at NOP (in words)” value was “moderate affinity” and the Ki came out at 76.6 nM. In addition, on human NOP [4], the “agonist efficacy at NOP in GIRK assay (in words)” value was “partial agonist efficacy” and the EC50 came to 174 nM. Moreover, on human MOP [5], the “agonist efficacy at MOP in GIRK assay (in words)” value is listed as “high agonist efficacy” and the concentration for a half-maximal effect (EC50) was found to be 23.6 nM. The Ki at KOP is 88.4 nM. Moreover, at human MOP [9], the Ki amounted to 1.97 nM.
On to `CC(C)[C@H]1CC[C@@H](N2CCC3(CC2)C(=O)N(CCNS(N)(=O)=O)CN3c2ccccc2)CC1`, for which, at human NOP [1], the “[35S]GTPγS NOP % Stim” value is 101 ± 0.7%, the concentration for a half-maximal effect (EC50) was determined as 12.2 nM and the “agonist efficacy at NOP in [35S]GTPγS binding (in words)” value is reported as “full intrinsic activity”. At human MOP [2], the “[35S]GTPγS MOP % Stim” value is 35.1 ± 6.5%, the EC50 stood at 20.9 nM and the “agonist efficacy at MOP in [35S]GTPγS binding (in words)” value is recorded as “partial agonist efficacy”. Also, at human NOP [3], the “affinity at NOP (in words)” value is “high affinity” and the Ki was found to be 1.28 nM. Moreover, at human NOP [4], the “agonist efficacy at NOP in GIRK assay (in words)” value was “full intrinsic activity”, the “GIRK NOP Emax” value amounted to 101.0% and the EC50 was found to be 0.6 nM. In addition, on human MOP [5], the “agonist efficacy at MOP in GIRK assay (in words)” value was “high agonist efficacy”, the “GIRK MOP Emax” value came out at 83.1% and the EC50 turned out to be 1.2 nM. The Ki on KOP turned out to be 22.8 nM. For the same compound, the “agonist-induced NOP phosphorylation (in words)” value in [7] (sites S346, S351, T362/S363) is recorded as “no phosphorylation of NOP at any of the tested sites”. In addition, the Ki on human MOP [9] is 1.46 nM.
